PubChem BioAssay AID1259414 – Drosophila RNAi Screening Center, 2018

Screen: 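Fly genes that alter Wolbachia amount inside host cells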 (primary screen)
Cells: Drosophila JW18 cells infected with Wolbachia
Knock-down reagent: long dsRNA against Drosophila genes, 0.25 µg dsRNA per well of a 384-well plate
Time to read-out: 5 days
Conditions: cells persistently infected with Wolbachia before knock-down; no added drug
Detection: 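Imaged fluorescence in situ signal for Wolbachia 23S rRNA per DAPI-counted host cell, given as a robust z-score within each plate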
Direction: Wolbachia per cell robust z: higher = more Wolbachia per host cell than the plate typical
Active means: 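Active if absolute robust z reaches 1.5 in two or more of three replicates, leaving out multi- or no-target dsRNAs, genes unexpressed in JW18 and A1 wells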
The deposit covers about 24,000 reagents; shown is a random part of those that have a named target and a result. Over the whole deposit, about 1,210 (5%) were called active. 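Inactive calls also include excluded dsRNAs with several or no targets, genes unexpressed in JW18, and well A1, regardless of score.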 Names joined by + are all predicted targets of the reagent.

target gene	amplicon	Wolbachia per cell robust z, rep 1	Wolbachia per cell robust z, rep 2	Wolbachia per cell robust z, rep 3	outcome
CG11741 (GeneID 5740784)	DRSC14367	-0.513	-0.637	0.316	inactive
Pka-C1 (GeneID 34284)	DRSC03399	0.322	-1	0.501	inactive
Pka-C1 (GeneID 34284)	DRSC23314	0.39	-0.106	-0.116	inactive
Pka-C1 (GeneID 34284)	DRSC28268	-2.06	-0.205	-0.321	inactive
Tsp5D (GeneID 31540)	DRSC18380	-1.05	0.0345	0.0699	inactive
SmydA-4 (GeneID 32034)	DRSC19390	-1.28	0.348	-1.87	inactive
SmydA-4 (GeneID 32034)	DRSC21866	-2.68	0.376	0.523	inactive
SmydA-4 (GeneID 32034)	DRSC26517	0.534	0.143	0.645	inactive
Osi11 (GeneID 40765)	DRSC12282	-0.533	0.926	-0.343	inactive
CG5742 (GeneID 37072)	DRSC06949	-0.0466	-0.503	-1.21	inactive
CG5742 (GeneID 37072)	DRSC28146	-0.639	0.318	1.35	inactive
CG6006 (GeneID 41962)	DRSC13137	-0.148	-0.728	-2.28	inactive
CG6006 (GeneID 41962)	DRSC15946	0.693	1.26	0.912	inactive
bves (GeneID 33083)	DRSC20520	0.928	0.715	0.0252	inactive
bves (GeneID 33083)	DRSC20555	-1.68	-3.16	-1.78	active
CG7766 (GeneID 31839)	DRSC18424	1.06	0.507	1.31	inactive
CG7766 (GeneID 31839)	DRSC41383	-1.98	0.563	-1.19	inactive
CG31140 (GeneID 42836)	DRSC14603	0.454	-0.0174	1.94	inactive
CG31140 (GeneID 42836)	DRSC15904	-0.906	-0.906	-0.135	inactive
sNPF (GeneID 35286)	DRSC23403	0.743	0.0889	0.696	inactive
Mpv17 (GeneID 43831)	DRSC17198	0.732	0.337	-1.25	inactive
Elp1 (GeneID 41399)	DRSC14250	0.417	0.48	0.0926	inactive
ppk25 (GeneID 2768722)	DRSC04973	-0.173	-0.788	-7.43	inactive
ppk25 (GeneID 2768722)	DRSC27513	0.265	0.13	0.699	inactive
Diedel (GeneID 43474)	DRSC14317	0.428	-3.46	1.24	inactive
Diedel (GeneID 43474)	DRSC27523	-0.636	1.26	1.1	inactive
CG10570 + CG42502	DRSC02071	0.406	0.382	-1.93	inactive
CG10570 + CG42502	DRSC28566	0.587	0.975	-0.302	inactive
nmo (GeneID 38890)	DRSC08902	1.02	2.23	0.489	inactive
nmo (GeneID 38890)	DRSC11377	-8.68	-0.512	-2.19	active
nmo (GeneID 38890)	DRSC27949	0.211	-2.12	-1.48	inactive
Spn77Bc (GeneID 40236)	DRSC41309	0.828	0.873	0.324	inactive
Vhl (GeneID 53433)	DRSC07716	-0.57	0.774	-0.0619	inactive
Vhl (GeneID 53433)	DRSC28332	0.465	0.0515	-0.738	inactive
CG11672 (GeneID 40977)	DRSC14344	-1.32	0.369	-0.186	inactive
nvd (GeneID 5740633)	DRSC22139	1.04	0.935	0.184	inactive
nvd (GeneID 5740633)	DRSC26328	1.32	0.569	1.52	inactive
CG33128 (GeneID 326263)	DRSC00294	-1.68	1.05	0.179	inactive
CG33128 (GeneID 326263)	DRSC28698	-1.15	0.117	-0.312	inactive
lncRNA:CR34024 (GeneID 12798269)	DRSC38811	0.455	0.685	1.01	inactive
CG11980 (GeneID 41078)	DRSC14456	-4.07	0.149	0.636	inactive
kkv (GeneID 45884)	DRSC12315	0.245	0.563	-0.697	inactive
Trissin (GeneID 41890)	DRSC14994	0.456	-1.1	0.419	inactive
CG15864 (GeneID 50001)	DRSC15122	-4.81	0.507	0.513	inactive
CG15864 (GeneID 50001)	DRSC25659	0.256	1.84	0.755	inactive
PGRP-SB1 (GeneID 39870)	DRSC11090	-0.73	-1.17	0.912	inactive

6 successive reagents from above:
target gene	amplicon	Wolbachia per cell robust z, rep 1	Wolbachia per cell robust z, rep 2	Wolbachia per cell robust z, rep 3	outcome
sNPF (GeneID 35286)	DRSC23403	0.743	0.0889	0.696	inactive
Mpv17 (GeneID 43831)	DRSC17198	0.732	0.337	-1.25	inactive
Elp1 (GeneID 41399)	DRSC14250	0.417	0.48	0.0926	inactive
ppk25 (GeneID 2768722)	DRSC04973	-0.173	-0.788	-7.43	inactive
ppk25 (GeneID 2768722)	DRSC27513	0.265	0.13	0.699	inactive
Diedel (GeneID 43474)	DRSC14317	0.428	-3.46	1.24	inactive
